Pooled drug test results. Numbers come from NIAID ChemDB, via PubChem.

Common to all: whole-cell or culture tests; species: Candida tropicalis; read-out: MIC

Rows are shuffled and stem from different studies.

Cc1ccc(N2C(=O)[C@@H](O)[C@H]2/C=C/c2ccccc2)cc1 ; strain or isolate: CP/K92 ; result: 21.5 µM
COC(=O)c1ccc(C[C@H](C(=O)OC)[C@@H](O)C(=O)OC)cc1 ; strain or isolate: KKP 334 ; result: 1 µg/mL
C(=C\c1ccccc1)/CNC(Cn1ccnc1)c1ccccc1 ; strain or isolate: CBS 94 CA 44 CA 34 ; result: 47.8 µg/mL
COC(=O)c1ccc(N2C(=O)C(OC(C)=O)C2c2ccc(C)cc2)cc1 ; strain or isolate: CP/K92 ; result: 35.41 µM
Cc1ccc(C2CC(c3ccc4ccccc4c3)=Cc3[nH][nH]c(=O)c32)cc1 ; result: 100 µg/mL
COc1cc(O)c2c(c1)C(=O)c1c(cc3c(c1O)-c1c(cc(C)c(C(=O)NC(CO)C(=O)O)c1O)[C@H](OC1OC(C)C(N(C)C)C(OC4OCC(O)C(O)C4O)C1O)[C@H]3O)C2=O ; strain or isolate: IFO 10241 ; result: 3.1 µg/mL
C/C(=N/O)C(Cl)(Cl)Cl ; result: 3220 µM
CC(=O)OC1C(=O)N2CCCS(=O)C12c1ccccc1 ; strain or isolate: CP/K92 ; result: 20.47 µM
Clc1ccc(C(Cn2ccnc2)NCc2cccc3ccccc23)c(Cl)c1 ; strain or isolate: CBS 94 CA 44 CA 43 ; result: 36.7 µg/mL
COc1ccc(C2CC(c3ccc4ccccc4c3)=Cc3[nH][nH]c(=O)c32)cc1 ; result: 100 µg/mL
CC(=O)OC1C(=O)N(c2ccccc2)C1c1ccc([N+](=O)[O-])cc1 ; strain or isolate: CP/K92 ; result: 18.4 µM
CCOC(=O)C1C(=O)C=C(c2ccc(Cl)cc2)CC1c1ccc(C2CC(c3ccc(Cl)cc3)=CC(=O)C2C(=O)OCC)cc1 ; strain or isolate: Clinical isolate ; result: 12.5 µg/mL
O/N=C\c1ccc(F)cc1 ; result: 3600 µM
O=C(NCCCCCCNC(=O)NNC(=O)c1ccccc1)NNC(=O)c1ccccc1 ; result: 7.5 µg/mL
CCC(C)n1ncn(-c2ccc(N3CCN(c4ccc(OC[C@H]5CO[C@](Cn6cncn6)(c6ccc(Cl)cc6Cl)O5)cc4)CC3)cc2)c1=O ; strain or isolate: Clinical isolates ; result: 0.306 µg/mL
C[C@H]1N(C(=O)c2ccc(C(F)(F)F)cc2)CCO[C@@]1(Cn1cncn1)c1ccc(F)cc1F ; strain or isolate: Isolate 1 ; result: 64 µg/mL
CCCCCCCCCCCCSc1ccnc(C(N)=S)c1 ; strain or isolate: 156 ; result: >500 µM
COc1ccc(/C=N/O)cc1 ; result: 1650 µM
CCCCCCCCCCSc1ccnc(C(N)=S)c1 ; strain or isolate: 156 ; result: >500 µM
O/N=C\c1ccccc1Cl ; result: 1410 µM
Cn1cccc1-c1n[nH]c(=O)n1CCCCCCn1c(-c2cccn2C)n[nH]c1=O ; result: 7.5 µg/mL
CCCCSc1ccnc(C(N)=S)c1 ; strain or isolate: 156 ; result: >500 µM
COc1cc(O)c2c(c1)C(=O)c1c(cc3c(c1O)-c1c(cc(C)c(C(=O)NC(CO)C(=O)O)c1O)[C@H](OC1OC(C)C(O)C(OC4OCC(O)C(O)C4O)C1O)C3O)C2=O ; strain or isolate: (AMPB-R) ; result: 3.12 µg/mL
CCC(C)CC(C)CCCCCCCCC(=O)N[C@H]1C[C@@H](O)[C@H](NCCN)NC(=O)[C@@H]2[C@@H](O)CCN2C(=O)[C@H]([C@H](O)CCN)NC(=O)[C@H]([C@H](O)[C@@H](O)c2ccc(O)cc2)NC(=O)[C@@H]2C[C@@H](O)CN2C(=O)[C@H]([C@@H](C)O)NC1=O ; strain or isolate: CLY545 ; result: 0.125 µg/mL
Clc1ccc(C(Cn2ccnc2)NC/C=C/c2ccccc2)cc1 ; strain or isolate: CBS 94 CA 44 CA 48 ; result: 50 µg/mL
COC(=O)[C@H]1[C@@H]2C[C@@H](O[C@@H]3O[C@H](C)[C@@H](O)[C@H](N)[C@@H]3O)/C=C/C=C/C=C/C=C/C=C/C=C/C=C/[C@H](C)[C@@H](O)[C@H](C)[C@H](C)OC(=O)C[C@H](O)C[C@H](O)[C@@H](O)CC[C@H](O)C[C@H](O)C[C@](O)(C[C@@H]1O)O2 ; strain or isolate: Isolate 93-231 fluconazole-resistant ; result: <0.25 µg/mL
Clc1ccc(C(Cn2ccnc2)NCc2ccc(-c3ccccc3)cc2)cc1 ; strain or isolate: CBS 94 CA 44 CA 26 ; result: 0.87 µg/mL
CC(C)CSc1ccnc(C(N)=S)c1 ; strain or isolate: 156 ; result: >500 µM
C[C@@H](c1ncncc1F)[C@](O)(Cn1cncn1)c1ccc(F)cc1F ; strain or isolate: 107 ; result: 0.06 µg/mL
CCOC(=O)C1C(=O)C=C(c2ccccc2)CC1c1ccc(C2CC(c3ccccc3)=CC(=O)C2C(=O)OCC)cc1 ; strain or isolate: Clinical isolate ; result: 25 µg/mL
Clc1ccc(C(Cn2ccnc2)NCc2cccc3ccccc23)cc1 ; strain or isolate: CBS 94 CA 44 CA 46 ; result: 43.3 µg/mL
OC(Cn1cncn1)(Cn1cncn1)c1ccc(F)cc1F ; strain or isolate: Berkout KCCM 50662 ; result: 0.8 µg/mL
c1ccc(C(Cn2ccnc2)NCc2cccc3ccccc23)cc1 ; strain or isolate: CBS 94 CA 44 CA 32 ; result: 40 µg/mL
CCOC(=O)C1C(=O)C=C(c2ccc(C)cc2)CC1c1ccc(C2CC(c3ccc(C)cc3)=CC(=O)C2C(=O)OCC)cc1 ; strain or isolate: Clinical isolate ; result: 25 µg/mL
O/N=C\c1cccs1 ; result: 3930 µM
CN1CCC[C@H]1CCCCCCCCCc1ccccc1 ; strain or isolate: HT4614 ; result: 25 µg/mL
O=c1[nH]nc(-c2ccccc2)n1CCCCCCn1c(-c2ccccc2)n[nH]c1=O ; result: 7.5 µg/mL

The first 4 rows once more:

SMILES,strain or isolate,result
Cc1ccc(N2C(=O)[C@@H](O)[C@H]2/C=C/c2ccccc2)cc1,CP/K92,21.5 µM
COC(=O)c1ccc(C[C@H](C(=O)OC)[C@@H](O)C(=O)OC)cc1,KKP 334,1 µg/mL
C(=C\c1ccccc1)/CNC(Cn1ccnc1)c1ccccc1,CBS 94 CA 44 CA 34,47.8 µg/mL
COC(=O)c1ccc(N2C(=O)C(OC(C)=O)C2c2ccc(C)cc2)cc1,CP/K92,35.41 µM